The record followed here is article PMC5650617.

The exact form of at least one protein or probe is not confirmed.

In the data set the target is IscR::His6 (Klebsiella pneumoniae CG43 (CG43S3)) (UniProt A6TCF2). Description: EMSA. The conditions noted are these: holo ([2Fe-2S]) form, weaker than PgalF-1; box #2 deleted; EMSA: 5 ng DNA, room temperature, 30 min, 5% non-denaturing PAGE, SYBR Green I stain; salt and pH not given (as in Wu et al., 2014); recombinant protein; probe letters rebuilt from the primers and the genome. (Mobility shift assays separate free from complexed probe on a gel.)

“GCAATAGCAACATTCTGATTGGGTTAATCAGATGTTTTTATGAGCGTTTGATGTTATTGACTATCTTTGCAGCCAGATTGATATGTATAAACTTGGAATTTGATATTGTATTTCCTGTAATCAAGAGTTTCGAATTTTGGTCATGACAAAAACGACAACGGCCTCCAAGCTGGAGACCGGTCGAAGGATAAAATGAGAGAACGATCGTCGATCACGCCCCATTTGTAGGATCTATAGTGCCAGTAGCGGTGAGGTTTTTCCAGGCAAATATTGAGGA (double strand) [PmrkHI-2]”: the binding result is given as “binds”.
